Sequences of proteins named here, by UniProt entry; tags and fusion partners are left off.
UniProt P13922, whole entry N51I/I164L: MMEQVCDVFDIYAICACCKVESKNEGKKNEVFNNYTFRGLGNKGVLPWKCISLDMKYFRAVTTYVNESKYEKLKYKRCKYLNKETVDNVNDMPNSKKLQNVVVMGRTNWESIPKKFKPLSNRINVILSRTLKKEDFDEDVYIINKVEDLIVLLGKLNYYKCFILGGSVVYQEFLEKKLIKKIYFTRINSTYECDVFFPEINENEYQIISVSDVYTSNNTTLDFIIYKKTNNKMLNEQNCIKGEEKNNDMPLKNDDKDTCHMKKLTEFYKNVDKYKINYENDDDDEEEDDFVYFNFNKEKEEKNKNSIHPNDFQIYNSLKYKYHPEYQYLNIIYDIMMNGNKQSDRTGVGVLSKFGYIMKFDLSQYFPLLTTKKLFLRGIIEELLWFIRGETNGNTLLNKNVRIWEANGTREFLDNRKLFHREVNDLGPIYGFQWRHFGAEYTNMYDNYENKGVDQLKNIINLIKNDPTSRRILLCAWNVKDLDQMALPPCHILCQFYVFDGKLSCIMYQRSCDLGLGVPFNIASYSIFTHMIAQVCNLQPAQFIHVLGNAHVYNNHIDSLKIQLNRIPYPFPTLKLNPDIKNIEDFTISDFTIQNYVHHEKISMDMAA
UniProt P13922, whole entry R59C/N108S: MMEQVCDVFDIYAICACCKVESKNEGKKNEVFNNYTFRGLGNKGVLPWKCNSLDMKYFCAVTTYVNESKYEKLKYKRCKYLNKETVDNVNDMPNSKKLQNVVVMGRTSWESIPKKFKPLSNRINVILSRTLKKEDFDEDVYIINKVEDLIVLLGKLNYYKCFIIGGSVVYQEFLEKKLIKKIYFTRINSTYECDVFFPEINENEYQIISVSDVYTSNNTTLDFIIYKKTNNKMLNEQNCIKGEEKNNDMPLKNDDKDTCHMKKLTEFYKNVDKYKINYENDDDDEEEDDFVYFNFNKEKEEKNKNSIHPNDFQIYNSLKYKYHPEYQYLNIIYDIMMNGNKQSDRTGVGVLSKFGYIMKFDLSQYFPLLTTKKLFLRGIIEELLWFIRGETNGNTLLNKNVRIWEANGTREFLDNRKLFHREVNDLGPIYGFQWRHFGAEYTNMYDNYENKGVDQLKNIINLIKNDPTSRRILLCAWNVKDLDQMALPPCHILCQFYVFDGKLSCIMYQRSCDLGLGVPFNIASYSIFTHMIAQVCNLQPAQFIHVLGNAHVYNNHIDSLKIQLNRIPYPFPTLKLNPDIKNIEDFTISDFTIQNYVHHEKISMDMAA

According to patent publication US11028072B2, “2,4-diamino-6-ethylpyrimidine derivatives with antimalarial activities against Plasmodium falciparum” (National Science and Technology Development Agency, priority 2015, dated 2021):

How the values were obtained:
[1] = target: wild type (WT) pfDHFR (Plasmodium falciparum, UniProt P13922, N108S/R59C); assay: Inhibition of wild type pfDHFR (Ki); assay type: biochemical; settings: read-out: Ki pfDHFR WT, hydrochloride salts, tested form: HCl
[2] = system: Human dihydrofolate reductase (hDHFR); assay: Inhibition of human dihydrofolate reductase (Ki); assay type: biochemical; settings: Ki hDHFR divided by Ki quadruple mutant pfDHFR; tested form: HCl
[3] = system: Vero cells; settings: read-out: Cytotoxicity against Vero cells (IC50), tested form: HCl
[4] = system: P. falciparum V1/S (N51I + C59R + S108 + I164L); settings: read-out: IC50 P. falciparum V1/S; in vitro, quadruple mutant strain V1/S; tested form: HCl
[5] = system: P. falciparum TM4/8.2 (wild type); settings: read-out: IC50 P. falciparum TM4/8.2 (WT); tested form: HCl
[6] = target: quadruple mutant N51I + C59R + S108N + I164L (QM) pfDHFR (Plasmodium falciparum, UniProt P13922, I164L/N51I); assay: Inhibition of quadruple mutant pfDHFR (Ki); assay type: biochemical; settings: read-out: Ki pfDHFR N51I + C59R + S108N + I164L (QM), hydrochloride salts, tested form: HCl

CCc1nc(N)nc(N)c1OCCCc1cn(Cc2cccc(C(=O)O)c2)nn1
Ki [1]: 0.6 nM
Selectivity ratio of Ki hDHFR/Ki QM [2]: 9.73
IC50 [3]: > 25 µM
IC50 [4]: > 25 µM
IC50 [5]: 1800 nM
Ki [6]: 9.71 nM
